Measured values from US20040067998A1, “Antifungal and/or antiparasitic pharmaceutical composition and novel indole derivatives as active principle of such a composition” (priority 2003, published 2004).
Values joined by “and” are separate entries in the source; they are usually repeats but may differ in a detail not shown here. Identical values can stand only once. Like-named read-outs stand apart in the source and are kept apart here.

Key:
Assay type in all cases: cell-based
[1] = test system: Candida albicans (strain n° CA980001); assay: Antifungal activity on a clinical strain of Candida albicans (MTT colorimetric microplate test); conditions: AmB: CMI = CI90
[2] = test system: Aspergillus fumigatus (strain n°AF 980003); assay: Antifungal activity on a clinical strain of Aspergillus fumigatus (Alamar Blue microplate test); conditions: AmB: CMI = CI90
[3] = test system: promastigote stage of Leishmania mexicana; assay: Antiparasitic activity on the promastigote form of Leishmania (MTT)
[4] = test system: Candida albicans (4 strains); assay: Antifungal activity in vitro on clinical strains of Candida: albicans (4 strains)
[5] = test system: Candida krusei (4 strains); assay: Antifungal activity in vitro on clinical strains of Candida: krusei (4 strains)
[6] = test system: Candida lusitaniae (1 strain); assay: Antifungal activity in vitro on clinical strains of Candida: lusitaniae (1 strain); conditions: strain CL980001 (Candida lusitaniae)
[7] = test system: Candida parapsilosis (2 strains); assay: Antifungal activity in vitro on clinical strains of Candida: parapsilosis (2 strains)
[8] = test system: Candida tropicalis (1 strain); assay: Antifungal activity in vitro on clinical strains of Candida: tropicalis (1 strain); conditions: strain CT980002 (Candida tropicalis)
[9] = test system: intracellular amastigote form of Leishmania mexicana; assay: Anti-leishmanian activity on the amastigote form in peritoneal macrophages of BALB/c mice; conditions: infected peritoneal macrophages; 96 hours

## amphotericin B
[1]
  CMI = CI90 Candida albicans (CA980001): 0.12 μM and 0.12 μg/ml
[2]
  CMI = CI90 Aspergillus fumigatus (AF980003): 0.15 μM and 0.14 μg/ml
[3]
  CI50 Leishmania mexicana Promastigotes: 0.029 ± 0.03 µg/mL
[3]; 36 h at 26° C., MTT
  CI50 Leishmania mexicana Promastigotes: 0.029 ± 0.03 µg/mL
[3]; 36 h at 26° C., MTT, listed as amphot ricin B
  CI50 Leishmania mexicana Promastigotes: 0.029 µg/mL
[3]; read-out: CI50 Leishmania mexicana Promastigotes
  IC50: 26 nM
[3]; read-out: CI50 Leishmania mexicana Promastigotes, 36 h at 26° C., MTT
  IC50: 26 nM
[4]; strain CA980001 (Candida albicans)
  CI80 on clinical strains of Candida: 0.08 ± 0.001 µM
[4]; strain CA980002 (Candida albicans)
  CI80 on clinical strains of Candida: 0.07 ± 0.001 µM
[4]; strain CA980003 (Candida albicans)
  CI80 on clinical strains of Candida: 0.08 ± 0.002 µM
[4]; strain CA980005 (Candida albicans)
  CI80 on clinical strains of Candida: 0.08 ± 0.002 µM
[5]; strain CK980001 (Candida krusei)
  CI80 on clinical strains of Candida: 0.07 ± 0.01 µM
[5]; strain CK980002 (Candida krusei)
  CI80 on clinical strains of Candida: 0.15 ± 0.08 µM
[5]; strain CK980003 (Candida krusei)
  CI80 on clinical strains of Candida: 0.86 ± 0.0 µM
[5]; strain CK980004 (Candida krusei)
  CI80 on clinical strains of Candida: 0.84 ± 0.0 µM
[6]
  CI80 on clinical strains of Candida: 0.63 ± 0.01 µM
[7]; strain CP980001 (Candida parapsilosis)
  CI80 on clinical strains of Candida: >1 µM
[7]; strain CP980002 (Candida parapsilosis)
  CI80 on clinical strains of Candida: 0.81 ± 0.01 µM
[8]
  CI80 on clinical strains of Candida: 0.08 ± 0.0 µM
[9]
  IC50 on the amastigote stage of Leishmania mexicana: 0.47 µg/mL
